{
  "source": "patent US9815872B2",
  "about": "“Toxoid peptides derived from phenol soluble modulin, delta toxin, superantigens, and fusions thereof” (dated 2017)",
  "molecular_target": "delta toxin (Staphylococcus aureus, UniProt P0C1V1, L12A/V20A)",
  "assay": "Neutralization assay of delta toxin hemolysis with human serum pool",
  "conditions": "5% horse RBC, FIG. 3",
  "data": [
    {"smiles": "CC[C@H](C)[C@H](NC(=O)[C@H](Cc1c[nH]c2ccccc12)NC(=O)[C@H](CCCCN)NC(=O)[C@@H](NC(=O)[C@H](C)NC(=O)[C@H](CC(=O)O)NC(=O)CNC(=O)[C@@H](NC(=O)[C@@H](NC(=O)[C@H](CO)NC(=O)[C@@H](NC(=O)[C@@H](NC(=O)[C@H](CC(=O)O)NC(=O)[C@H](CCC(N)=O)NC(=O)[C@H](C)NC(=O)[C@@H](N)CCSC)[C@@H](C)CC)[C@@H](C)CC)[C@@H](C)O)[C@@H](C)CC)C(C)C)C(=O)N[C@H](C(=O)N[C@@H](CC(=O)O)C(=O)N[C@H](C(=O)N[C@@H](C)C(=O)N[C@@H](CC(N)=O)C(=O)N[C@@H](CCCCN)C(=O)N[C@@H](Cc1ccccc1)C(=O)N[C@H](C(=O)N[C@@H](CCCCN)C(=O)N[C@@H](CCCCN)C(=O)O)[C@@H](C)O)[C@@H](C)O)[C@@H](C)CC", "values": [
      {"measurement": "lysis of the cells by the mutant alone", "setting": "listed as DT-ala2", "result": "highly attenuated"},
      {"measurement": "lysis of the cells by the mutant alone", "setting": "listed as Delta toxin-ala2", "result": "neither induced significant lysis of the cells"}
    ]}
  ]
}
